Consider one compound from publication PMC8812913 (PLoS Neglected Tropical Diseases, 2022).

For the data set the following is noted: hamster, in vivo.

SMILES strings stand for the structures.

Compound `CNc1nc(N)nc2c1ncn2C1OC(COP(=O)(NC(C)C(=O)OC(C)C)Oc2ccccc2)C(O)C1(C)F` (stereo not shown) [AT-752] showed a Mean wt. change of 2.2 ± 0.8 g.
